Measured values from several laboratories, pooled; numbers as filed in NIAID ChemDB.

Common to all: tests in culture; species: Mycobacterium tuberculosis

Inhibition is in % at the dose shown (toxicity tests: loss of growth or viability). Lines come from different laboratories, so protocols vary. MIC bound: limit read from a one-dose screen. ECn is the concentration giving n% inhibition of infection, replication or growth. An empty or dashed field is not shown.

structure,endpoint,tested at,setting,strain or isolate,mutations,read by,value
CC(=O)Nc1ccc(OCC(=O)N/N=C/c2ccc(Cl)cc2)cc1,inhibition,12.5 µg/mL,,H37Rv,,,29%
C[C@]1(COc2ccc(N3CCN(Cc4cc5cc(OC(F)(F)F)ccc5o4)CC3)cc2)Cn2cc([N+](=O)[O-])nc2O1,MIC,,,H37Rv,,,0.012 µg/mL
NNC(=O)c1ccncc1,MIC,,,Isolate G1,,,0.031 µg/mL
Nc1c(C(=O)Nc2ccccc2)[n+]([O-])c2ccccc2[n+]1[O-],MIC,,,CS-R,,,6.3 µg/mL
O=C(O)c1c2n(c3cc([N+](=O)[O-])c(N4CCC5(CC4)OCCO5)cc3c1=O)CS2,MIC,,,H37Rv,MDR-TB,agar,<0.09 µM
CCc1ccnc2c([N+](=O)[O-])cc(C(C)=O)c(OC(C)C)c12,MIC,,,Isoniazid-resistant,,,50 µg/mL
CCN=c1cc2n(-c3ccccc3)c3ccc(Cl)cc3nc-2cc1Nc1ccccc1,MIC,,,H37Rv,,,2 µg/mL
NC(=O)c1cnccn1,MIC,,,DHMH5207 niacin-negative,,,>2048 µg/mL
CC(C)(C)NC(=O)C1c2ccccc2CCN1c1cc2c(cc1[N+](=O)[O-])c(=O)c(C(=O)O)cn2-c1ccc(F)cc1F,MIC,,,ATCC35801,,,11.37 µM
CC(NC(=O)c1c(F)cccc1Cl)c1nnc(SCCOc2ccc(F)cc2)n1Cc1cccnc1,MIC,,7 d,H37Rv (ATCC 27294),,broth dilution,>64 µg/mL
C=CCn1c(-c2ccc(N=Nc3c(C)[nH][nH]c3=O)cc2)n[nH]c1=S,MIC,,,H37Rv,,,>12.5 µg/mL
CC(C)OC(=O)N1CC(C)N(C(=O)OC(C)C)CC1C,MIC,,,H37Rv,,BACTEC,≥12.5 µg/mL
CC(C)(C)OC(=O)NC1C2CN(c3cc4c(=O)c(C(=O)O)c5n(c4cc3[N+](=O)[O-])CS5)CC21,MIC,,,H37Rv,,agar,0.4 µM
O=C(O)c1cn(-c2ccc(F)cc2F)c2cc(N3CCN(C(c4ccccc4)c4ccc(Cl)cc4)CC3)c(F)cc2c1=O,MIC,,,ATCC35801,,,10.35 µM
COC1(OC)CC2OC1C1N=NN(C(=O)OC(C)(C)C)C21,MIC bound,,,H37Rv,,BACTEC,>12.5 µg/mL
CC(=O)Nc1cccc2ccc(C3CCCCC3)nc12,MIC,,,H37Rv,,,>6.25 µg/mL
Cc1[nH]n(-c2ccccc2)c(=O)c1N=Nc1ccc(C(=O)N/N=C/c2ccc(F)cc2)cc1,EC50,,,H37Rv,,,>12.5 µg/mL
CC(C)N=c1cc2n(-c3ccc(Cl)cc3)c3ccccc3nc-2cc1Nc1ccc(Cl)cc1,MIC,,,2230 (SM INH RIF-RES),,,2 µg/mL
O=C(O)c1c2n(c3cc([N+](=O)[O-])c(N4CCC(O)(c5ccc(Cl)cc5)CC4)cc3c1=O)CS2,MIC,,,H37Rv,,agar,0.8 µM
Cc1ccnc(Nc2nnc(Nc3cc(C)ccn3)c3ccccc23)c1,MIC bound,,,H37Rv,,BACTEC,>12.5 µg/mL
O=C(Nc1ccc(F)cc1)N(Cc1cc2ccc(F)cc2[nH]c1=O)C1CCCCC1,MIC,,7 d,H37Rv (ATCC 27294),,broth dilution,>64 µg/mL
CN1CCN(C(=O)/N=N/C(=O)N2CCN(C)CC2)CC1,MIC bound,,,H37Rv,,BACTEC,>12.5 µg/mL
Cc1[nH]n(CCO)c(=O)c1N=Nc1ccc(-c2n[nH]c(=S)n2-c2ccccc2)cc1,EC50,,,H37Rv,,,>12.5 µg/mL
CC(=O)Nc1ccc(OCC(=O)NN2C(=O)C(C)SC2c2ccccc2[N+](=O)[O-])cc1,inhibition,12.5 µg/mL,,H37Rv,,,27%
Cc1cc(F)ccc1/C=C/CN1CCN(c2ccc(OC[C@@]3(C)Cn4cc([N+](=O)[O-])nc4O3)cc2)CC1,MIC,,,H37Rv,,,<0.012 µg/mL
CCCCCCCOc1c(C(C)=O)cc(N)c2nccc(CC)c12,MIC,,,H37Rv,,,>6.25 µg/mL
O=C1c2cc3c(cc2C(=O)c2[nH]ncc21)OCO3,inhibition,6.25 µg/mL,,H37Rv,,resazurin,16%
COc1cc(/C=N/NC(=O)COc2ccc(NC(C)=O)cc2)cc(OC)c1OC,EC50,,,H37Rv,,,>12.5 µg/mL
C[C@]1(COc2ccc(N3CCC(CCOCc4ccc(Cl)cc4)CC3)cc2)Cn2cc([N+](=O)[O-])nc2O1,MIC,,,H37Rv,,,0.024 µg/mL
NC(N)=NC(N)=Nc1ccc(S(=O)(=O)c2ccc(N=C(N)N=C(N)N)cc2)cc1,inhibition,6.25 µg/mL,,,,resazurin,0%
N#Cc1ccc(-c2ccc(OCC(=O)O)cc2CN2CCN(c3ccccn3)CC2)cc1,MIC,,,H37Rv (ATCC 27294),,broth dilution,32 µg/mL
C[C@]1(COc2ccc(N3CCC(COCc4ccc(Cl)c(Cl)c4)CC3)cc2)Cn2cc([N+](=O)[O-])nc2O1,MIC,,,H37Rv,,,0.024 µg/mL
CN[C@@H]1[C@H](O[C@H]2[C@H](O[C@H]3[C@H](O)[C@@H](O)[C@H](N=C(N)N)[C@@H](O)[C@@H]3N=C(N)N)O[C@@H](C)[C@]2(O)C=O)O[C@@H](CO)[C@H](O)[C@H]1O,MIC,,,Isolate 2,,,8 µg/mL
COc1cccc(-c2ccc(OCC(=O)O)cc2CN2CCN(c3ccccn3)CC2)c1,MIC,,,H37Rv (ATCC 27294),,broth dilution,32 µg/mL
CCN=c1cc2n(-c3ccc(Cl)cc3)c3ccccc3nc-2cc1Nc1ccc(Cl)cc1,MIC,,,2219 (INH RIF-RES),,,0.12 µg/mL
C[C@H]1COc2c(N3CCN(C)CC3)c(F)cc3c(=O)c(C(=O)O)cn1c23,MIC,,,263 strains,,,4 µg/mL
CN1C(=O)C(N=Nc2ccc([N+](=O)[O-])cc2)SC1=S,inhibition,12.8 µg/mL,,H37Rv,,BACTEC,56%
C[C@]1(COc2ccc(N3CCC(Nc4ccc(Cl)cc4OC(F)(F)F)CC3)cc2)Cn2cc([N+](=O)[O-])nc2O1,MIC,,,H37Rv,,,0.024 µg/mL
CC(=O)Nc1ccc(OCC(=O)N/N=C/c2ccccc2[N+](=O)[O-])cc1,EC50,,,H37Rv,,,>12.5 µg/mL
O=C(O)c1cn(C2CC2)c2cc(N3CCN(C(c4ccccc4)c4ccc(Cl)cc4)CC3)c(F)cc2c1=O,MIC,,,ATCC35801,,,0.17 µM
C[C@]1(COc2ccc(N3CCC(OCC4CCCCC4)CC3)cc2)Cn2cc([N+](=O)[O-])nc2O1,MIC,,,H37Rv,,,0.012 µg/mL
CO[C@H]1/C=C/O[C@@]2(C)Oc3c(C)c(O)c4c(O)c(c(/C=N/N5CCN(C6CCCC6)CC5)c(O)c4c3C2=O)NC(=O)/C(C)=C\C=C\[C@H](C)[C@H](O)[C@@H](C)[C@@H](O)[C@@H](C)[C@H](OC(C)=O)[C@@H]1C,MIC,,,Erdman,,,0.06 µg/mL
C[C@]1(COc2ccc(N3CCC(CCOCc4ccc(OC(F)(F)F)cc4)CC3)cc2)Cn2cc([N+](=O)[O-])nc2O1,MIC,,,H37Rv,,,0.012 µg/mL
CCOC(=O)C/C(O)=C(/N=Nc1nc[nH]c1C(N)=O)C(=O)OCC,MIC bound,,,H37Rv,,resazurin,>6.25 µg/mL
CC(C)N=c1cc2n(-c3ccc(Cl)cc3)c3ccccc3nc-2cc1Nc1ccc(Cl)cc1,MIC,,,Praha 131,,,0.26 µM
CN(c1cccc(Cl)c1)C1CCN(c2ccc(OC[C@@]3(C)Cn4cc([N+](=O)[O-])nc4O3)cc2)CC1,MIC,,,H37Rv,,,0.024 µg/mL
CN(C)CCCn1c2nc(=O)[nH]c(=O)c-2nc2cc(Cl)c(Cl)cc21,inhibition,6.25 µg/mL,,H37Rv,,BACTEC,20%
CC1CN(c2cc3c(=O)c(C(=O)O)c4n(c3cc2[N+](=O)[O-])CS4)CC(C)O1,MIC,,,H37Rv,,agar,3.99 µM
COc1ccc2cc(CN(C(=O)Nc3ccc(F)cc3)C3CCCCC3)c(=O)[nH]c2c1,MIC,,14 d,H37Rv (ATCC 27294),,broth dilution,>64 µg/mL
Nc1nc2n(O)cc(-c3ccccc3)nc-2c(=O)n1,inhibition,12.5 µg/mL,,H37Rv,,BACTEC,3%
O=C(O)c1c2n(c3cc([N+](=O)[O-])c(N4CCC(N5CCCCC5)CC4)cc3c1=O)CS2,MIC,,,H37Rv,,agar,1.75 µM
CO[C@H]1/C=C/O[C@@]2(C)Oc3c(C)c(O)c4c(O)c(c(/C=N/N5CCN(C)CC5)c(O)c4c3C2=O)NC(=O)/C(C)=C\C=C\[C@H](C)[C@H](O)[C@@H](C)[C@@H](O)[C@@H](C)[C@H](OC(C)=O)[C@@H]1C,MIC,,,Isolate 9,,,>32 µg/mL
O=C(O)c1c2n(c3cc(F)c(N4CCC(N5CCCCC5)CC4)cc3c1=O)CS2,MIC,,,H37Rv,,agar,7.49 µM
Nc1nc(N)c(N=Nc2ccc(C(=O)O)cc2)c(=O)[nH]1,MIC bound,,,H37Rv,,BACTEC,>12.5 µg/mL
Cc1ccc(Cn2nnc(-c3cc([N+](=O)[O-])cc([N+](=O)[O-])c3)n2)cc1,MIC,,14 d,Praha 1,,,0.125 µM
NNC(=O)c1ccncc1,MIC,,,Isolate 11,,,2 µg/mL
O=[N+]([O-])c1cn2c(n1)O[C@@H](COc1ccc(N3CCC(COCc4ccc(OC(F)(F)F)cc4)CC3)cc1)C2,MIC,,,H37Rv,,,0.0015 µg/mL
CC(=O)c1cc([N+](=O)[O-])c2ncccc2c1C(C)C,inhibition,6.25 µg/mL,,H37Rv,,,0%
CC(C)(C)n1cc(C(=O)O)c(=O)c2cc(F)c(N3CCN(C(=O)C4COc5ccccc5O4)CC3)cc21,MIC,,,ATCC35801,,,3.06 µM
COc1cc2c(cc1OC)CN(c1cc3c(=O)c(C(=O)O)c4n(c3cc1[N+](=O)[O-])CS4)CC2,MIC,,,H37Rv,,agar,0.83 µM
O=[N+]([O-])c1cccc2c(C3CCCC3)cc(C3CCCC3)nc12,inhibition,6.25 µg/mL,,H37Rv,,,96%
Cc1ccnc(NS(=O)(=O)c2ccc(N=Nc3c(O)n(-c4ccccc4)n(-c4ccccc4)c3=O)cc2)n1,MIC bound,,,H37Rv,,BACTEC,>12.8 µg/mL
CC(=O)Nc1ccc(OCC(=O)N/N=C/c2ccccc2)cc1,inhibition,12.5 µg/mL,,H37Rv,,,17%
O=C1CN(/N=C/c2ccc([N+](=O)[O-])o2)C(=O)N1,inhibition,12.5 µg/mL,,H37Rv,,BACTEC,23%
CCc1ccnc2c([N+](=O)[O-])cc(C(C)=O)c(OC3CCCC3)c12,inhibition,6.25 µg/mL,,H37Rv,,,0%
CCCSC(SCCC)C1OC(c2ccccc2)OC2COC(c3ccccc3)OC21,MIC bound,,,H37Rv,,BACTEC,>12.5 µg/mL
CN1CCN(c2cc3c(cc2F)c(=O)c(C(=O)O)cn3-c2ccc(F)cc2F)CC1c1ccccc1,MIC,,,ATCC35801,,,6.34 µM
Clc1ccc2nnnn2n1,inhibition,12.5 µg/mL,,H37Rv,,BACTEC,100%
CC(=O)n1nc(-c2ccc(N=Nc3c(C)[nH]n(-c4ccccc4)c3=O)cc2)n(-c2ccccc2)c1=S,MIC,,,H37Rv,,,>12.5 µg/mL
Cc1cc2c(cc1C)[n+]([O-])c(-c1nc3ccccc3s1)c(N)[n+]2[O-],MIC,,,PAS-R,,,12.5 µg/mL
Cc1nc(C#N)ccc1-c1ccc(OCC(=O)O)cc1CN1CCN(c2ccccn2)CC1,MIC,,,H37Rv (ATCC 27294),,broth dilution,32 µg/mL
O=C1c2ccccc2C(=O)c2c(Nc3cccc4c3C(=O)c3ccccc3C4=O)cccc21,MIC bound,,,H37Rv,,BACTEC,>12.5 µg/mL
O=C(O)c1cn(-c2ccc(F)cc2F)c2cc(N3CCN(Cc4ccc5c(c4)OCO5)CC3)c(F)cc2c1=O,MIC,,,ATCC35801,,,5.82 µM
O=C(Nc1ccc2[nH]c(C(=O)N3CC(CCl)c4ccc([N+](=O)[O-])cc43)cc2c1)c1cc2ccccc2o1,MIC bound,,,H37Rv,,BACTEC,>12.5 µg/mL
CN[C@@H]1[C@@H](O)[C@@H](O[C@@H]2[C@@H](O)[C@H](O[C@H]3O[C@H](CN)CC[C@H]3N)[C@@H](N)C[C@H]2N)OC[C@]1(C)O,MIC,,,234/2005,,,0.26 µM
Cl.Cl.Cl.FC(F)(F)c1ccc2c(c1)N(CCCN1CCN(CCN3CCCCC3)CC1)c1ccccc1S2,MIC bound,,,H37Rv,,BACTEC,≤12.5 µg/mL
Cc1[nH][nH]c(=O)c1N=Nc1ccc(-c2n[nH]c(=S)n2-c2ccccc2)cc1,MIC,,,H37Rv,,,>12.5 µg/mL

Repeating the first 5 entries:

{"structure": "CC(=O)Nc1ccc(OCC(=O)N/N=C/c2ccc(Cl)cc2)cc1", "endpoint": "inhibition", "tested at": "12.5 µg/mL", "strain or isolate": "H37Rv", "value": "29%"}
{"structure": "C[C@]1(COc2ccc(N3CCN(Cc4cc5cc(OC(F)(F)F)ccc5o4)CC3)cc2)Cn2cc([N+](=O)[O-])nc2O1", "endpoint": "MIC", "strain or isolate": "H37Rv", "value": "0.012 µg/mL"}
{"structure": "NNC(=O)c1ccncc1", "endpoint": "MIC", "strain or isolate": "Isolate G1", "value": "0.031 µg/mL"}
{"structure": "Nc1c(C(=O)Nc2ccccc2)[n+]([O-])c2ccccc2[n+]1[O-]", "endpoint": "MIC", "strain or isolate": "CS-R", "value": "6.3 µg/mL"}
{"structure": "O=C(O)c1c2n(c3cc([N+](=O)[O-])c(N4CCC5(CC4)OCCO5)cc3c1=O)CS2", "endpoint": "MIC", "strain or isolate": "H37Rv", "mutations": "MDR-TB", "read by": "agar", "value": "<0.09 µM"}